Numbering of substitutions follows the chain as printed.
Key:
Test in all cases: biochemical
[1] = target: T1, HLA-DP DPA1*01:03/DPB1*02:01 (Homo sapiens, UniProt P04440+P20036, A65V/A84D/A85E/K98E); format: binding
T1 sequence (P20036 29-260): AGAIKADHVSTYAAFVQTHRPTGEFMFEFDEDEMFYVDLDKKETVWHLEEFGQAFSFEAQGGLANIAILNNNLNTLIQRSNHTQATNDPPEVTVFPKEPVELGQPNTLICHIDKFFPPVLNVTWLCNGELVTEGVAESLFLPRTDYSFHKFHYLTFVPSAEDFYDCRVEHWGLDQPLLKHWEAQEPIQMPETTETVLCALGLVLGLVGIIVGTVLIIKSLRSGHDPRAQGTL
T1 sequence (P04440 30-258 A65V/A84D/A85E/K98E): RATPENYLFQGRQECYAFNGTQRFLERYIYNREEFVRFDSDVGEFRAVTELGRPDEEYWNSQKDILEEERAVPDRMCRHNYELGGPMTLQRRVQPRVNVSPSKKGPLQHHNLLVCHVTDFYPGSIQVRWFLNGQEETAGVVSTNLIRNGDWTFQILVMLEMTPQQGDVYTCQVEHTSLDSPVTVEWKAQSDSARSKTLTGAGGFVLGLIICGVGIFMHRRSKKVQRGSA

[2] = target: T2, HLA-DP DPA1*01:03/DPB1*03:01 (Homo sapiens, UniProt P04440+P20036, A65V/A84D/A85E/E86D/F38Y/G113D/G114E/G40L/I94L/L37V/M105V/M116V/P115A/R125K/T199I); format: binding
T2 sequence (P20036 29-260): T1 sequence (P20036 29-260)
T2 sequence (P04440 30-258 L37V/F38Y/G40L/A65V/A84D/A85E/E86D/I94L/M105V/G113D/G114E/P115A/M116V/R125K/T199I): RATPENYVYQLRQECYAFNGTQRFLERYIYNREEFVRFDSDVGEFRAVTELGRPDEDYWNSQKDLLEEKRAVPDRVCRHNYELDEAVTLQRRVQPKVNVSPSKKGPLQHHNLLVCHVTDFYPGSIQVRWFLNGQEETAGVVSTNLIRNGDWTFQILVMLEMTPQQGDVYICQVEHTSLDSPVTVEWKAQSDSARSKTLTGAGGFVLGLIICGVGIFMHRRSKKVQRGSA

[3] = target: T3, HLA-DP DPA1*02:01/DPB1*14:01 (Homo sapiens, UniProt P04440+P20036, A65V/A84D/A85E/E86D/F191V/F38H/G113D/G114E/G40L/I94L/K142R/L158P/L37V/M105V/M116V/M62Q/P115A/Q81R/R125K/T114A/T199I/T259P); format: binding
T3 sequence (P20036 29-260 A42M/M62Q/Q81R/T114A/K142R/L158P/F191V/T259P): T1 sequence (P20036 29-260) with A14M, M34Q, Q53R, T86A, K114R, L130P, F163V, T231P
T3 sequence (P04440 30-258 L37V/F38H/G40L/A65V/A84D/A85E/E86D/I94L/M105V/G113D/G114E/P115A/M116V/R125K/T199I/R223Q): T2 sequence (P04440 30-258 L37V/F38Y/G40L/A65V/A84D/A85E/E86D/I94L/M105V/G113D/G114E/P115A/M116V/R125K/T199I) with Y9H, R194Q

[4] = target: T4, HLA-DP DPA1*01:03/DPB1*20:01 (Homo sapiens, UniProt P04440+P20036, A65V/A84D/A85E/E86D/F38Y/G113D/G114E/G40L/I94L/L37V/M116V/P115A/R125K/T199I); format: binding
T4 sequence (P20036 29-260): T1 sequence (P20036 29-260)
T4 sequence (P04440 30-258 L37V/F38Y/G40L/A65V/A84D/A85E/E86D/I94L/G113D/G114E/P115A/M116V/R125K/T199I/V234M): T2 sequence (P04440 30-258 L37V/F38Y/G40L/A65V/A84D/A85E/E86D/I94L/M105V/G113D/G114E/P115A/M116V/R125K/T199I) with V76M, V205M

[5] = target: HLA-DQ DQA1*03:01/DQB1*03:01 (Homo sapiens, UniProt P01909+P01920, A209T/C70Q/DUP78-78/E183D/F237L/G63E/I129T/K197E/L178F/L74F/L98V/Q57E/Q76R/S185I/S97I/T49S/V73L); format: binding
[6] = target: HLA-DQ DQA1*03:01/DQB1*03:02 (Homo sapiens, UniProt P01909+P01920, A209T/A45G/C70Q/D89A/DUP78-78/E183D/E77G/F237L/G63E/H199R/I129T/K197E/L178F/L74F/L98V/Q57E/Q76R/S185I/S97I/T217I/T49S/V73L/Y58L); format: binding
[7] = target: HLA-DQ DQA1*04:01/DQB1*04:02 (Homo sapiens, UniProt P01909+P01920, A45G/E106S/E183D/E77G/E98D/H199R/I129T/K197E/L107V/L178F/L91T/P87R/P88L/R102E/S185I/S97I/T103D/T217I/V99I/Y41F/Y58G)
[8] = target: HLA-DQ DQA1*01:01/DQB1*05:01 (Homo sapiens, UniProt P01909+P01920, A157S/A45G/A70V/C70R/D89V/E106S/E118A/E183D/E77G/F83G/G63E/H151Q/H199R/H252R/H253Q/I129T/I235V/I88M/INS77G/K197Q/L107V/L117V/L119Y/L178F/L71W/L74F/L85Q/L91A/L98M/M46L/N214S/P87R/Q116E/Q256R/Q57E/Q76K/R102G/R240Q/R75S/R78G/S102Y/S185I/S41F/S97I/T103A/T109R/T121G/T122I/T172A/T86R/V148I/V68A/V73E/Y34C/Y58G/Y62H)

Compound | IC50 [1] | IC50 [2] | IC50 [3] | IC50 [4] | IC50 [5] | IC50 [6] | IC50 [7] | IC50 [8]
CC[C@H](C)[C@H](NC(=O)[C@H](CCC(=O)O)NC(=O)CN)C(=O)N[C@@H](Cc1ccc(O)cc1)C(=O)N[C@@H](CCCCN)C(=O)N[C@@H](CCCNC(=N)N)C(=O)N[C@@H](Cc1c[nH]c2ccccc12)C(=O)N[C@H](C(=O)N[C@H](C(=O)N[C@@H](CC(C)C)C(=O)NCC(=O)N[C@@H](CC(C)C)C(=O)N[C@@H](CC(N)=O)C(=O)N[C@@H](CCCCN)C(=O)N[C@H](C(=O)N[C@H](C(=O)N[C@@H](CCCNC(=N)N)C(=O)N[C@@H](CCSC)C(=O)N[C@@H](Cc1ccc(O)cc1)C(N)=O)C(C)C)[C@@H](C)CC)[C@@H](C)CC)[C@@H](C)CC [p24(127-145)] | 0.23 µM | 1.65 µM | 2.25 µM | 0.181 µM | 0.866 µM | 13 µM | 11.9 µM | 3.35 µM
CC[C@H](C)[C@H](NC(=O)[C@@H](NC(=O)[C@H](CCC(=O)O)NC(=O)[C@@H]1CCCN1C(=O)[C@@H](N)CO)C(C)C)C(=O)N1CCC[C@H]1C(=O)N[C@@H](CCSC)C(=O)N[C@@H](Cc1ccccc1)C(=O)N[C@@H](CO)C(=O)N[C@@H](C)C(=O)N[C@@H](CC(C)C)C(=O)N[C@@H](CO)C(=O)N[C@@H](CCC(=O)O)C(=O)NCC(=O)N[C@@H](C)C(=O)N[C@H](C(N)=O)[C@@H](C)O [p24(33-48)] | 2.99 µM | 0.541 µM | 2.06 µM | 0.479 µM | 0.079 µM | 0.645 µM | 0.473 µM | 5.41 µM
CSCC[C@H](NC(=O)[C@@H]1CCCN1C(=O)[C@H](CCCNC(=N)N)NC(=O)[C@H](CC(C)C)NC(=O)[C@@H]1CCCN1C(=O)[C@@H](NC(=O)[C@H](CCC(N)=O)NC(=O)[C@@H]1CCCN1C(=O)[C@H](CCCNC(=N)N)NC(=O)[C@@H](NC(=O)[C@@H]1CCCN1C(=O)[C@H](Cc1ccccc1)NC(=O)CN)C(C)C)C(C)C)C(=O)N[C@H](C(=O)N[C@@H](Cc1ccc(O)cc1)C(=O)N[C@@H](CCCCN)C(=O)NCC(=O)N[C@@H](C)C(=O)N[C@@H](Cc1ccccc1)C(=O)N[C@@H](CC(=O)O)C(=O)N[C@@H](CC(C)C)C(N)=O)[C@@H](C)O [nef(67-87)] | 0.058 µM | 0.953 µM | 12.2 µM | 3.99 µM | 0.309 µM | 7.7 µM | 18.7 µM | 7.86 µM

Source: publication PMC3445454, “Broad and Cross-Clade CD4^+ T-Cell Responses Elicited by a DNA Vaccine Encoding Highly Conserved and Promiscuous HIV-1 M-Group Consensus Peptides” (PLoS ONE, 2012)
